Values of other authors, collected in patent US4923852A, “Aminoalkyl naphthalenediols as host resistance enhancers against viral infections” (Merck & Co., Inc., priority 1987, dated 1990).

System: AIDS or AIDS-related complex (ARC)
Details: clinical; cited from earlier work

Interleukin-2: Protein made by white blood cells that mediates production of interferon
efficacy in AIDS or ARC patients: not encouraging
